Assay results as given in publication PMC5158083 (PLoS Pathogens, 2016).

Chains of the proteins cited; added tags and fusions are not shown. Residues count along the entry.
UniProt J9VS02, 99-455 limits assumed: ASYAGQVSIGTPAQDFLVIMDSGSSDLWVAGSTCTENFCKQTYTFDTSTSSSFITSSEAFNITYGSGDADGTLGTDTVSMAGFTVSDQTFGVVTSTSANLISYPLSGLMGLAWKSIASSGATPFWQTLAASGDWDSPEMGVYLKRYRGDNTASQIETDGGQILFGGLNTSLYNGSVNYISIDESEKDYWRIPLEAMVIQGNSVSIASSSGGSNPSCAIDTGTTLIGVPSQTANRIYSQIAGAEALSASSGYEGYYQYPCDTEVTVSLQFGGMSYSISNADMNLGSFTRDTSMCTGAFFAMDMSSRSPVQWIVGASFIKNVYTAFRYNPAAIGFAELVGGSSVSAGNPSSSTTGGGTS

Biological target: May1 (Cryptococcus neoformans, UniProt J9VS02)
Test: May1 inhibition, fluorogenic IQ-2 assay (screen and IC50)
Assay type: biochemical
Settings: for % May1 inhibition at 1 uM: 1 uM inhibitor, substrate IQ-2

Row | Compound | % May1 inhibition at 1 uM [%] | pIC50 (read-out: IC50 against May1, 14.6 nM May1, 10 μM IQ-2, 100 mM MES 100 mM NaCl pH 4.5, 10 min preincubation)
1 | CC(C)[C@@H]1NC(=O)C[C@H](O)[C@H](Cc2ccc(O)cc2)NC(=O)CCCCCCCCCCCNC1=O | 100 | 7.39
2 | NC(=O)[C@H](CCc1ccccc1)NC(=O)[C@H](CCC(=O)O)NC(=O)C[C@H](O)[C@H](Cc1ccccc1)NC(=O)OCc1ccccc1 | 100 | –

pIC50: −log10 of the molar value.
